SMILES strings stand for the structures. The list shows a part of the results, in another mix than the full data. Results filed as inconclusive are left out. Activity calls are given as the source filed them. Rule as the data show it: active = inhibition above about 48%; inconclusive = no clear call, values can overlap the other calls; inactive = below that.

The experiment has as its target Gag-Pol polyprotein (Human immunodeficiency virus type 1 group M subtype B (isolate HXB2)) (UniProt P04585). Kind of experiment: HIV-1 RT RNase H inhibitors, retest, confirmation, biochemical (AID 651). Particulars: Recombinant RT RNase H, fluorescent RNA/DNA duplex cleavage; at 10 µM; stronger effect = higher value.
One may read the inhibition as how much of the control response was suppressed. Take `O=P(Nc1nccs1)(c1ccccc1)c1nc2ccccc2s1` (configuration not stated): the inhibition is active: 67.8%.

On to `CCOP1(=S)c2c(C)nn(CCC#N)c2N=C(c2ccc(F)cc2)N1C` (configuration not stated), for which the inhibition was inactive: 15.9%.

Source of the values: PubChem BioAssay AID651 (University of Pittsburgh Molecular Library Screening Center, 2007).
